ChEMBL document CHEMBL4376895, “Structure and Activity Studies of Disulfide-Deficient Analogues of αO-Conotoxin GeXIVA” (J Med Chem, 2020)

Chains of the proteins cited; added tags and fusions are not shown. Residues count along the entry.
UniProt P12389, 28-511 limits assumed: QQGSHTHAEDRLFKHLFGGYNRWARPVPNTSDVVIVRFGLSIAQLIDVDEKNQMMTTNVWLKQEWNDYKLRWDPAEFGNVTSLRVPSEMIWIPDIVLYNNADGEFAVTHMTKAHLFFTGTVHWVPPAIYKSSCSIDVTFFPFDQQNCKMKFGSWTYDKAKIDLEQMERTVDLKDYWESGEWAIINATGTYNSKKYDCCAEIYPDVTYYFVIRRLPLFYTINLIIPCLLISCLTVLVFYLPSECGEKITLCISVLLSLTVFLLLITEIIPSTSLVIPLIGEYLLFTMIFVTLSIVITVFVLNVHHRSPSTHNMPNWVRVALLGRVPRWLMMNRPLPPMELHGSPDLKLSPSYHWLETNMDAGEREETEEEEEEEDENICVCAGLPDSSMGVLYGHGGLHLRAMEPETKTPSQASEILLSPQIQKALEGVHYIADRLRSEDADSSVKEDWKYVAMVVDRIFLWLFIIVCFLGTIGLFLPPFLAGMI
UniProt P12390, 25-500 limits assumed: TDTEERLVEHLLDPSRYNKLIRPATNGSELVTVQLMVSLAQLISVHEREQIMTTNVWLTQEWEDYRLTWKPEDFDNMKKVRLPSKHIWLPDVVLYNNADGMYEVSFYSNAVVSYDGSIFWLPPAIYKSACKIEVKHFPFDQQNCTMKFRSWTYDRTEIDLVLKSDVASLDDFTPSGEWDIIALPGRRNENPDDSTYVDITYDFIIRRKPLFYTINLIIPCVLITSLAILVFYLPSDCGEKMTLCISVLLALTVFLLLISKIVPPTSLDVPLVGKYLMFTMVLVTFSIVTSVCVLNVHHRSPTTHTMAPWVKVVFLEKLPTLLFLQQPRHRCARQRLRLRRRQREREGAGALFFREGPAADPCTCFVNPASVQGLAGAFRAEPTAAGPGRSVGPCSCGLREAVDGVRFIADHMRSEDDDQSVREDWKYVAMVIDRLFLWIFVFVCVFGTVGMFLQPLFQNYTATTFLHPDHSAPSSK
UniProt Q05941, 23-502 limits assumed: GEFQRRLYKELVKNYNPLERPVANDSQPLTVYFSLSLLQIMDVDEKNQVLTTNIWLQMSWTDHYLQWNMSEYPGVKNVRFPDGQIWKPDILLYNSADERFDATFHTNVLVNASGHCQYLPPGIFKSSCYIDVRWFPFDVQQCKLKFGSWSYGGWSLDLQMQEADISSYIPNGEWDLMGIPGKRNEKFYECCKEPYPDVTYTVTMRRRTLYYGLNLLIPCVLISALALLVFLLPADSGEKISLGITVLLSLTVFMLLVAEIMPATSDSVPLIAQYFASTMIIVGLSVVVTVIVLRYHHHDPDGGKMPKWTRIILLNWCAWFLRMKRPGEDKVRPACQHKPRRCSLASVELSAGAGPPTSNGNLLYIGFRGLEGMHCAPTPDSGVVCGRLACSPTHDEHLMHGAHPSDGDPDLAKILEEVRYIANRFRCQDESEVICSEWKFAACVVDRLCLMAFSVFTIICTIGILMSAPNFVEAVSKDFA
UniProt P04757, 26-499 limits assumed: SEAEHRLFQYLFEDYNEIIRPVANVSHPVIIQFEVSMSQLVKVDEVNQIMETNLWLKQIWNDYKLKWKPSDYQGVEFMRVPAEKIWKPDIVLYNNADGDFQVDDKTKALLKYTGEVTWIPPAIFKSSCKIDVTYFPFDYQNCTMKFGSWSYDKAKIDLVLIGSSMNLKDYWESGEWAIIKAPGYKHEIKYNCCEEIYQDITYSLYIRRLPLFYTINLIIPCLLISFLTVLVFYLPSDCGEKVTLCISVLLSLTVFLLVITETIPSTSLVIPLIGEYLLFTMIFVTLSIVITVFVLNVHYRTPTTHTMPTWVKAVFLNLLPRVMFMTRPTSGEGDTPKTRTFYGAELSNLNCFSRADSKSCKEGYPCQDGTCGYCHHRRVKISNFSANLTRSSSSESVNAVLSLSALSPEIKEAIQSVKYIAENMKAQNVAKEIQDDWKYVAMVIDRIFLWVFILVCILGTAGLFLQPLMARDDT
UniProt P12392, 21-495 limits assumed: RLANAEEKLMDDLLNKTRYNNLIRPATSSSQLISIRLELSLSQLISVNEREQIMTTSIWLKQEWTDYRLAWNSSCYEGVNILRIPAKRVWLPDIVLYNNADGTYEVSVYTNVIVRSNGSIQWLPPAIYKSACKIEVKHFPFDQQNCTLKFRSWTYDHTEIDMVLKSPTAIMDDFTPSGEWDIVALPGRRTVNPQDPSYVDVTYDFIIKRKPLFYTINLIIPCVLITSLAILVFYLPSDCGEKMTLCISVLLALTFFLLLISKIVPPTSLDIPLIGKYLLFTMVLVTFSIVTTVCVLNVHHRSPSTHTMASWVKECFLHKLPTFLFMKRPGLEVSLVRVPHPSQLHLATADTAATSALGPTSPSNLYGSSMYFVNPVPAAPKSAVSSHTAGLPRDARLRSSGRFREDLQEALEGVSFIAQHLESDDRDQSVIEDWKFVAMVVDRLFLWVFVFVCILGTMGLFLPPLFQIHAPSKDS
UniProt P43144, 26-479 limits assumed: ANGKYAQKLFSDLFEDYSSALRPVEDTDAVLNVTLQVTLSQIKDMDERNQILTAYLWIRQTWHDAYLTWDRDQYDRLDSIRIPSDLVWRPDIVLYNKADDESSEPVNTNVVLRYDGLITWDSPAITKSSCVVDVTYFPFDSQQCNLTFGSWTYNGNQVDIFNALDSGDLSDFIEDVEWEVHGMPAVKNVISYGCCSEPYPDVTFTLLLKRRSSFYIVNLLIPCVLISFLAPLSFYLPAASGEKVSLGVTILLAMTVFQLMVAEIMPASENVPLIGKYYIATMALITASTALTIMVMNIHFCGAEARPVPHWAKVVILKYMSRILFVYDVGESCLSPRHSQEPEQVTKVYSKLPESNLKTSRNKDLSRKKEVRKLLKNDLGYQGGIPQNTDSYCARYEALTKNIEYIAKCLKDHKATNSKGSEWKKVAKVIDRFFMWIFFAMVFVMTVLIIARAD
UniProt Q9JLB5, 25-447 limits assumed: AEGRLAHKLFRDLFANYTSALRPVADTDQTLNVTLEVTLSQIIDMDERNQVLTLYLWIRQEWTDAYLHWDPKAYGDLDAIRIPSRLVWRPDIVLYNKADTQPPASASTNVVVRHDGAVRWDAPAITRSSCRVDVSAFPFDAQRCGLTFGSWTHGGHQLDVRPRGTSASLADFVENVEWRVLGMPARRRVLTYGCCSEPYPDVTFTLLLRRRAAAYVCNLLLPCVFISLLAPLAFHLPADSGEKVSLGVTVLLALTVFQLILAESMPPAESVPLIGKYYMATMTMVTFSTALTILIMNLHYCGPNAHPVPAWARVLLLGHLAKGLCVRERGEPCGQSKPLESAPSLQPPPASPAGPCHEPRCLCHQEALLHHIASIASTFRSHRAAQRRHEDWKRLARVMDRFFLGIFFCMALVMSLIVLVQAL

Key:
[1] = biological target: Neuronal acetylcholine receptor; alpha2/beta2 (Rattus norvegicus, UniProt P12389+P12390)
[2] = biological target: Neuronal acetylcholine receptor subunit alpha-7 (Rattus norvegicus, UniProt Q05941)
[3] = biological target: Neuronal acetylcholine receptor; alpha3/beta4 (Rattus norvegicus, UniProt P04757+P12392)
[4] = biological target: Nicotinic acetylcholine receptor alpha9/alpha10 (Rattus norvegicus, UniProt P43144+Q9JLB5)
[5] = biological target: Neuronal acetylcholine receptor; alpha3/beta2 (Rattus norvegicus, UniProt P04757+P12390)

In the case of `CC[C@H](C)[C@H](NC(=O)[C@H](CCCNC(=N)N)NC(=O)[C@H](CCCNC(=N)N)NC(=O)[C@H](C)NC(=O)[C@H](Cc1ccc(O)cc1)NC(=O)[C@H](CCCNC(=N)N)NC(=O)[C@H](CCCNC(=N)N)NC(=O)[C@H](CCCNC(=N)N)NC(=O)[C@H](CCCNC(=N)N)NC(=O)[C@H](CC(=O)O)NC(=O)[C@H](Cc1ccc(O)cc1)NC(=O)[C@@H]1CCCN1C(=O)[C@H](CO)NC(=O)[C@H](CCCNC(=N)N)NC(=O)[C@H](CO)NC(=O)[C@H](Cc1ccc(O)cc1)NC(=O)[C@H](CCCNC(=N)N)NC(=O)CNC(=O)[C@H](CO)NC(=O)[C@H](CO)NC(=O)[C@H](CCCNC(=N)N)NC(=O)[C@H](CO)NC(=O)[C@@H](N)[C@@H](C)O)C(=O)N[C@H](C(=O)N[C@@H](CC(=O)O)C(=O)N[C@@H](C)C(=O)N[C@@H](C)C(=O)N[C@H](C(=O)O)C(C)C)[C@@H](C)O`, the IC50 [1] is reported as 4.9 µM, the IC50 [2] is reported as 4.11 µM and the IC50 [3] is reported as 5.75 µM. The IC50 [4] was 0.013 µM and the IC50 [5] was 3.71 µM.

For `CC[C@H](C)[C@H](NC(=O)[C@H](CCCNC(=N)N)NC(=O)[C@H](CCCNC(=N)N)NC(=O)[C@H](CO)NC(=O)[C@H](Cc1ccc(O)cc1)NC(=O)[C@H](CCCNC(=N)N)NC(=O)[C@H](CCCNC(=N)N)NC(=O)[C@H](CCCNC(=N)N)NC(=O)[C@H](CCCNC(=N)N)NC(=O)[C@H](CC(=O)O)NC(=O)[C@H](Cc1ccc(O)cc1)NC(=O)[C@@H]1CCCN1C(=O)[C@H](CO)NC(=O)[C@H](CCCNC(=N)N)NC(=O)[C@H](CO)NC(=O)[C@H](Cc1ccc(O)cc1)NC(=O)[C@H](CCCNC(=N)N)NC(=O)CNC(=O)[C@H](CO)NC(=O)[C@H](CO)NC(=O)[C@H](CCCNC(=N)N)NC(=O)[C@H](CO)NC(=O)[C@@H](N)[C@@H](C)O)C(=O)N[C@H](C(=O)N[C@@H](CC(=O)O)C(=O)N[C@@H](C)C(=O)N[C@@H](CO)C(=O)N[C@H](C(=O)O)C(C)C)[C@@H](C)O`, the IC50 [1] was 7.52 µM, the IC50 [2] was 1.69 µM and the IC50 [3] was 6.63 µM. The IC50 [4] was 0.016 µM and the IC50 [5] was 2.09 µM.

`CC[C@H](C)[C@H](NC(=O)[C@H](CCCNC(=N)N)NC(=O)[C@H](CCCNC(=N)N)NC(=O)[C@H](C)NC(=O)[C@H](Cc1ccc(O)cc1)NC(=O)[C@H](CCCNC(=N)N)NC(=O)[C@H](CCCNC(=N)N)NC(=O)[C@H](CCCNC(=N)N)NC(=O)[C@H](CCCNC(=N)N)NC(=O)[C@H](CC(=O)O)NC(=O)[C@H](Cc1ccc(O)cc1)NC(=O)[C@@H]1CCCN1C(=O)[C@H](CO)NC(=O)[C@H](CCCNC(=N)N)NC(=O)[C@@H]1CSSC[C@H](NC(=O)[C@@H](N)[C@@H](C)O)C(=O)N[C@@H](CCCNC(=N)N)C(=O)N[C@@H](CO)C(=O)N[C@@H](CO)C(=O)NCC(=O)N[C@@H](CCCNC(=N)N)C(=O)N[C@@H](Cc2ccc(O)cc2)C(=O)N1)C(=O)N[C@H](C(=O)N[C@@H](CC(=O)O)C(=O)N[C@@H](C)C(=O)N[C@@H](C)C(=O)N[C@H](C(=O)O)C(C)C)[C@@H](C)O` showed an IC50 [1] of 3.12 µM, an IC50 [2] of 1.4 µM and an IC50 [3] of 6.13 µM. The IC50 [4] was 0.014 µM and the IC50 [5] was 3.25 µM.

With `CC[C@H](C)[C@@H]1NC(=O)[C@H](CCCNC(=N)N)NC(=O)[C@H](CCCNC(=N)N)NC(=O)[C@@H](NC(=O)[C@H](Cc2ccc(O)cc2)NC(=O)[C@H](CCCNC(=N)N)NC(=O)[C@H](CCCNC(=N)N)NC(=O)[C@H](CCCNC(=N)N)NC(=O)[C@H](CCCNC(=N)N)NC(=O)[C@H](CC(=O)O)NC(=O)[C@H](Cc2ccc(O)cc2)NC(=O)[C@@H]2CCCN2C(=O)[C@H](CO)NC(=O)[C@H](CCCNC(=N)N)NC(=O)[C@H](C)NC(=O)[C@H](Cc2ccc(O)cc2)NC(=O)[C@H](CCCNC(=N)N)NC(=O)CNC(=O)[C@H](CO)NC(=O)[C@H](CO)NC(=O)[C@H](CCCNC(=N)N)NC(=O)[C@H](C)NC(=O)[C@@H](N)[C@@H](C)O)CSSC[C@@H](C(=O)N[C@H](C(=O)O)C(C)C)NC(=O)[C@H](C)NC(=O)[C@H](CC(=O)O)NC(=O)[C@H]([C@@H](C)O)NC1=O` the IC50 [1] was 9.45 µM, the IC50 [2] was 1.71 µM and the IC50 [3] was > 10 µM. It also gave an IC50 [4] of 0.005 to 0.02 µM and an IC50 [5] of 4.74 µM.

For `CC[C@H](C)[C@@H]1NC(=O)[C@H](CCCNC(=N)N)NC(=O)[C@H](CCCNC(=N)N)NC(=O)[C@H](C)NC(=O)[C@H](Cc2ccc(O)cc2)NC(=O)[C@H](CCCNC(=N)N)NC(=O)[C@H](CCCNC(=N)N)NC(=O)[C@H](CCCNC(=N)N)NC(=O)[C@H](CCCNC(=N)N)NC(=O)[C@H](CC(=O)O)NC(=O)[C@H](Cc2ccc(O)cc2)NC(=O)[C@@H]2CCCN2C(=O)[C@H](CO)NC(=O)[C@H](CCCNC(=N)N)NC(=O)[C@H](C)NC(=O)[C@H](Cc2ccc(O)cc2)NC(=O)[C@H](CCCNC(=N)N)NC(=O)CNC(=O)[C@H](CO)NC(=O)[C@H](CO)NC(=O)[C@H](CCCNC(=N)N)NC(=O)[C@@H](NC(=O)[C@@H](N)[C@@H](C)O)CSSC[C@@H](C(=O)N[C@H](C(=O)O)C(C)C)NC(=O)[C@H](C)NC(=O)[C@H](CC(=O)O)NC(=O)[C@H]([C@@H](C)O)NC1=O`, the IC50 [1] was 3.98 µM, the IC50 [2] was 3.36 µM and the IC50 [3] was 4.75 µM. It also gave an IC50 [4] of 0.036 µM and an IC50 [5] of 1.05 µM.

`CC[C@H](C)[C@@H]1NC(=O)[C@H](CCCNC(=N)N)NC(=O)[C@H](CCCNC(=N)N)NC(=O)[C@@H](NC(=O)[C@H](Cc2ccc(O)cc2)NC(=O)[C@H](CCCNC(=N)N)NC(=O)[C@H](CCCNC(=N)N)NC(=O)[C@H](CCCNC(=N)N)NC(=O)[C@H](CCCNC(=N)N)NC(=O)[C@H](CC(=O)O)NC(=O)[C@H](Cc2ccc(O)cc2)NC(=O)[C@@H]2CCCN2C(=O)[C@H](CO)NC(=O)[C@H](CCCNC(=N)N)NC(=O)[C@H](CO)NC(=O)[C@H](Cc2ccc(O)cc2)NC(=O)[C@H](CCCNC(=N)N)NC(=O)CNC(=O)[C@H](CO)NC(=O)[C@H](CO)NC(=O)[C@H](CCCNC(=N)N)NC(=O)[C@H](CO)NC(=O)[C@@H](N)[C@@H](C)O)CSSC[C@@H](C(=O)N[C@H](C(=O)O)C(C)C)NC(=O)[C@H](C)NC(=O)[C@H](CC(=O)O)NC(=O)[C@H]([C@@H](C)O)NC1=O` was tested, and the IC50 [1] was 9.06 µM, the IC50 [2] was 1.52 µM and the IC50 [3] was 8.41 µM. For the same compound, the IC50 [4] was 0.012 µM and the IC50 [5] was 3.8 µM.

`CC[C@H](C)[C@@H]1NC(=O)[C@H](CCCNC(=N)N)NC(=O)[C@H](CCCNC(=N)N)NC(=O)[C@H](CO)NC(=O)[C@H](Cc2ccc(O)cc2)NC(=O)[C@H](CCCNC(=N)N)NC(=O)[C@H](CCCNC(=N)N)NC(=O)[C@H](CCCNC(=N)N)NC(=O)[C@H](CCCNC(=N)N)NC(=O)[C@H](CC(=O)O)NC(=O)[C@H](Cc2ccc(O)cc2)NC(=O)[C@@H]2CCCN2C(=O)[C@H](CO)NC(=O)[C@H](CCCNC(=N)N)NC(=O)[C@H](CO)NC(=O)[C@H](Cc2ccc(O)cc2)NC(=O)[C@H](CCCNC(=N)N)NC(=O)CNC(=O)[C@H](CO)NC(=O)[C@H](CO)NC(=O)[C@H](CCCNC(=N)N)NC(=O)[C@@H](NC(=O)[C@@H](N)[C@@H](C)O)CSSC[C@@H](C(=O)N[C@H](C(=O)O)C(C)C)NC(=O)[C@H](C)NC(=O)[C@H](CC(=O)O)NC(=O)[C@H]([C@@H](C)O)NC1=O` gave an IC50 [1] of 2.16 µM, an IC50 [2] of 1.51 µM and an IC50 [3] of 3.66 µM. The IC50 [4] was 0.013 µM and the IC50 [5] was 1.18 µM.

For `CC[C@H](C)[C@H](NC(=O)[C@H](CCCNC(=N)N)NC(=O)[C@H](CCCNC(=N)N)NC(=O)[C@H](C)NC(=O)[C@H](Cc1ccc(O)cc1)NC(=O)[C@H](CCCNC(=N)N)NC(=O)[C@H](CCCNC(=N)N)NC(=O)[C@H](CCCNC(=N)N)NC(=O)[C@H](CCCNC(=N)N)NC(=O)[C@H](CC(=O)O)NC(=O)[C@H](Cc1ccc(O)cc1)NC(=O)[C@@H]1CCCN1C(=O)[C@H](CO)NC(=O)[C@H](CCCNC(=N)N)NC(=O)[C@H](C)NC(=O)[C@H](Cc1ccc(O)cc1)NC(=O)[C@H](CCCNC(=N)N)NC(=O)CNC(=O)[C@H](CO)NC(=O)[C@H](CO)NC(=O)[C@H](CCCNC(=N)N)NC(=O)[C@H](C)NC(=O)[C@@H](N)[C@@H](C)O)C(=O)N[C@H](C(=O)N[C@@H](CC(=O)O)C(=O)N[C@@H](C)C(=O)N[C@@H](C)C(=O)N[C@H](C(=O)O)C(C)C)[C@@H](C)O`, the IC50 [1] was 7.51 µM, the IC50 [2] was 3.56 µM and the IC50 [3] was 8.99 µM. The IC50 [4] was 0.014 µM and the IC50 [5] was 3.57 µM.

Compound `CC[C@H](C)[C@H](NC(=O)[C@H](CCCNC(=N)N)NC(=O)[C@H](CCCNC(=N)N)NC(=O)[C@@H]1CSSC[C@H](NC(=O)[C@H](Cc2ccc(O)cc2)NC(=O)[C@H](CCCNC(=N)N)NC(=O)CNC(=O)[C@H](CO)NC(=O)[C@H](CO)NC(=O)[C@H](CCCNC(=N)N)NC(=O)[C@H](C)NC(=O)[C@@H](N)[C@@H](C)O)C(=O)N[C@@H](CCCNC(=N)N)C(=O)N[C@@H](CO)C(=O)N2CCC[C@H]2C(=O)N[C@@H](Cc2ccc(O)cc2)C(=O)N[C@@H](CC(=O)O)C(=O)N[C@@H](CCCNC(=N)N)C(=O)N[C@@H](CCCNC(=N)N)C(=O)N[C@@H](CCCNC(=N)N)C(=O)N[C@@H](CCCNC(=N)N)C(=O)N[C@@H](Cc2ccc(O)cc2)C(=O)N1)C(=O)N[C@H](C(=O)N[C@@H](CC(=O)O)C(=O)N[C@@H](C)C(=O)N[C@@H](C)C(=O)N[C@H](C(=O)O)C(C)C)[C@@H](C)O` has an IC50 [1] of 2.99 µM, an IC50 [2] of 4.58 µM and an IC50 [3] of 6.31 µM. The IC50 [4] was 0.017 µM and the IC50 [5] was 1.37 µM.

Compound `CC[C@H](C)[C@H](NC(=O)[C@H](CCCNC(=N)N)NC(=O)[C@H](CCCNC(=N)N)NC(=O)[C@@H]1CSSC[C@H](NC(=O)[C@H](Cc2ccc(O)cc2)NC(=O)[C@H](CCCNC(=N)N)NC(=O)CNC(=O)[C@H](CO)NC(=O)[C@H](CO)NC(=O)[C@H](CCCNC(=N)N)NC(=O)[C@H](CO)NC(=O)[C@@H](N)[C@@H](C)O)C(=O)N[C@@H](CCCNC(=N)N)C(=O)N[C@@H](CO)C(=O)N2CCC[C@H]2C(=O)N[C@@H](Cc2ccc(O)cc2)C(=O)N[C@@H](CC(=O)O)C(=O)N[C@@H](CCCNC(=N)N)C(=O)N[C@@H](CCCNC(=N)N)C(=O)N[C@@H](CCCNC(=N)N)C(=O)N[C@@H](CCCNC(=N)N)C(=O)N[C@@H](Cc2ccc(O)cc2)C(=O)N1)C(=O)N[C@H](C(=O)N[C@@H](CC(=O)O)C(=O)N[C@@H](C)C(=O)N[C@@H](CO)C(=O)N[C@H](C(=O)O)C(C)C)[C@@H](C)O` has an IC50 [1] of 2.23 µM, an IC50 [2] of 3.02 µM and an IC50 [3] of 7.57 µM. It also gave an IC50 [4] of 0.021 µM and an IC50 [5] of 1.57 µM.
